The results in this text go back to patent US7999099B2, “Modified 5′-phosphonate azidothymidine—potential anti-viral preparations” (priority 2004, dated 2011).

Data set [1] concerns MT-4 cells. As to the kind of experiment: Assessment of cytotoxicity in MT-4 cells (MTT). The note with it: 4 days. It is filed as cell-based. How it is done: Drug cytotoxicity is assessed by adding its dilutions in serum-free RPMI-1640 medium to MT-4 cell suspension (initial concentration in the wells of a 96-well plate (Cel-Cult, UK) to final concentrations of 0.001-100 µg/ml (3 wells per dose) and cultivating at 37° C. for 4 days. Inoculation concentration is 0.5 ? 10^6 cells/ml is used. Cells in the same volume serum-free medium containing no drug are used as control. Viable cells are counted on the 4th day of cultivation using the formasan method (MTT staining of live cells). Toxicity of various doses of the drug is assessed by comparing cell viability with the control, the results are used to plot the dose-dependent curve and determine the concentration reducing cell viability by 50% (CD50). Effective concentrations of the investigational compounds produce on toxic effect on MT-4 cells. It should be noted that 50% toxic doses are 5-6 orders higher than does effective against HIV-1 (table 1).

Data set [2] in a line: Pharmacokinetics of generated AZT in dog blood after oral administration. It counts as in vivo. The following applies: of azidothymidine, amount equivalent to 250 mg of AZT. Here is the method:
A dog weighing 12 kg was orally given 250 mg of the investigational compound (mixed with curd). Blood samples (1 ml) were taken at defined intervals from the femoral vein. The samples were centrifuged (10 minutes at 2000 rpm) and the supernatant was separated. Oxetan (internal standard, 0.25 […]g) and methanol (0.75 ml) were added to aliquots of the supernatant (0.25 ml). The resulting mixture was centrifuged for 3 minutes at 5000 rpm. The supernatant was separated and evaporated in air flow at 40° C., water (1 ml) was added to the residue. Aliqutes (20[…]1) were analyzed by HPLC in Gynkotec chromatograph (Germany) using Ultrasphere ODC Beckman analytical column (USA). Eluent: 6% acetonitrile in 0.1% H3PO4 (pH 2.1) in the presence of 0.15% triethylamine; detection at […]max 265 nm at 30° C.

One may read the AUC as the area under the concentration-time curve, a measure of exposure. Usually Cmax stands for the maximum level reached in the sampled fluid or tissue. Usually MRT stands for a mean duration of stay, worked out from the concentration-time curve. The Tmax is the time at which the peak concentration occurs. Regarding “5′-Aminocarbonylphosphonyl-3′-azido-3′-deoxythymidine [Ie]”, the “CD50 (concentration reducing cell viability by 50%)” value in data set [1] is over 300 µM. Besides, in data set [2], the AUC turned out to be 9240 ng·h/mL, the CL was found to be 27.0 L/h, the Cmax was 740 ng/mL and the MRT is 13.9 h. Besides, in data set [2], the T1/2 was found to be 9.6 h and the Tmax was determined as 5.0 h.
With “5′-Iodomethylphosphonyl-3′-azido-3′-deoxythymidine [Ib]”, the “CD50 (concentration reducing cell viability by 50%)” value in data set [1] was over 500 µM.
As to “5′-Chloromethylphosphonyl-3′-azido-3′-deoxythymidine [Ia]”, the “CD50 (concentration reducing cell viability by 50%)” value in data set [1] was 300 µM.
Still for that read-out and setting: the figure for “5′-Hydroxymethylphosphonyl-3′-azido-3′-deoxythymidine [Ic]” is over 500 µM; for “5′-Methoxymethylphosphonyl-3′-azido-3′-deoxythymidine” it is over 500 µM.
